According to patent US10207006B2, “Oligosaccharide conjugates and methods of use” (priority 2013, dated 2019):

Tested on: anti-Brucella antibodies in bovine sera
Type: binding, cattle

CO[C@H]1OC(C)[C@@H](NC=O)C(O)C1O[C@H]1OC(C)[C@@H](NC=O)C(O[C@H]2OC(C)[C@@H](NC=O)C(O)C2O[C@H](C=O)OC(C)[C@H](C=O)NC=O)C1O (stereo partly shown) [oxiTSM]
DSn % (diagnostic sensitivity at optimal Youden Index): 73.33%
DSp % (diagnostic specificity at optimal Youden Index): 92.65%
Optimal Youden Index (YI = DSn + DSp-1), YI Estimate: 0.6670
ROC - Area Under Curve, AUC: 0.8948
